Results of unrelated studies side by side (data: NIAID ChemDB).

Common to all: target-level tests

Inhibition is in % at the dose shown (toxicity tests: loss of growth or viability).

SMILES,target,measure,species,dose,value
Cc1cc(S(=O)(=O)Nc2cc(-c3ccsc3)sc2C(=O)O)c(C)cc1Cl,NS3 ATPase,IC50,Hepatitis C virus,-,<5 µM
CC[C@H](C)[C@H](NC(=O)[C@@H](NC(=O)[C@H](CCC(=O)O)NC(=O)[C@H](CC(=O)O)NC(C)=O)C(c1ccccc1)c1ccccc1)C(=O)N[C@@H](CC1CCCCC1)C(=O)N[C@@H](CS)C(=O)O,Full-length NS3,IC50,Hepatitis C virus,-,0.3674 µM
CCCn1c(=O)c(C2=NS(=O)(=O)c3ccccc3N2)c(O)c2ccccc21,RNA-dependent RNA polymerase,IC50,Hepatitis C virus,-,0.1 µM
CC(=O)N[C@@H](CC(=O)O)C(=O)N[C@@H](CCC(=O)O)C(=O)N[C@H](C(=O)N[C@H](C(=O)N[C@@H](CS)C(=O)N[C@@H](CS)C(=O)O)C(C)C)C(C)C,HCV NS3 protease,IC50,Hepatitis C virus,-,2.1 µM
O=C(NCCc1ccccc1Cl)Nc1cscc1-c1nc(C(=O)O)c(O)c(=O)[nH]1,HCV polymerase,IC50,Hepatitis C virus,-,<25 µM
NC(=O)[C@H](CC(=O)O)NC(=O)[C@H](CC1CCCCC1)NC(=O)[C@@H]1CCCN1C(=O)[C@H](CS)NC(=O)[C@H](CC1CCCCC1)NC(=O)[C@@H](N)CCC(=O)O,NS3/NS4A protease,IC50,Hepatitis C virus,-,>100 µM
O=C1/C(=C\c2cc(F)c(F)c(F)c2)SC(=S)N1NS(=O)(=O)c1ccccc1,NS5B polymerase,IC50,Hepatitis C virus,-,≤30 µM
CC(=O)N[C@@H](CC(=O)O)C(=O)N[C@@H](CCC(=O)O)C(=O)N[C@H](C(=O)N[C@@H](CCCCN)C(=O)N[C@@H](CC1CCCCC1)C(=O)N[C@@H](CS)C(=O)O)C(c1ccccc1)c1ccccc1,HCV NS3 protease,IC50,Hepatitis C virus,-,>6 µM
O=C(Nc1ccc2[nH]ncc2c1)c1cc(C2CCNCCN2)c(F)cc1F,Reverse transcriptase,inhibition,Hepatitis B virus,1 µg/mL,67%
CC[C@H](NC(=O)[C@@H](NC(=O)[C@@H](NC(=O)[C@H](CC(=O)O)NC(=O)CCCC(=O)O)C(C)C)C(C)C)C(=O)N[C@@H](CS)C(=O)O,HCV NS3 protease,IC50,Hepatitis C virus,-,5.5 µM
O=C(O)c1sc(-c2ccccc2)cc1NS(=O)(=O)c1ccc(Cl)c(Cl)c1,NS3 ATPase,IC50,Hepatitis C virus,-,5–20 µM
O=C(Nc1cccc(-c2nc(C(=O)O)c(O)c(=O)[nH]2)c1)Nc1cccc([N+](=O)[O-])c1,HCV polymerase,IC50,Hepatitis C virus,-,<100 µM
O=C(Nc1ccc2[nH]ncc2c1)c1cc(N2CCNCC2)c(F)cc1F,Nonstructural protein 5B,inhibition,Hepatitis C virus,10 µg/mL,69%
CSCC[C@H](NC(=O)[C@H](CCC(=O)O)NC(=O)[C@@H](CC(=O)O)NC(C)=O)C(=O)N[C@@H](CCC(=O)O)C(=O)N[C@@H](CCC(=O)O)C(=O)N[C@@H](CS)C(=O)O,Full-length NS3,IC50,Hepatitis C virus,-,0.6012 µM
O=C(O)c1sc(-c2ccccc2)cc1N(C(=O)c1ccc(Cl)cc1Cl)C1CCNCC1,NS3 ATPase,IC50,Hepatitis C virus,-,5–20 µM
O=C(Nc1ccsc1-c1nc(C(=O)O)c(O)c(=O)[nH]1)OCC1CCOC1,HCV polymerase,IC50,Hepatitis C virus,-,<25 µM
CCOc1ccc2ccccc2c1C(=O)N[C@H](C(=O)N1C[C@H](OCc2ccccc2)C[C@H]1C(=O)N[C@H](C=O)CC)C(C)C,NS3 protease,Ki,Hepatitis C virus,-,1–100 µM
CC(=O)N[C@@H](CCC(=O)O)C(=O)N[C@H](C(=O)N[C@@H](CCC(=O)O)C(=O)N[C@@H](CC1CCCCC1)C(=O)N[C@@H](CS)C(=O)O)C(c1ccccc1)c1ccccc1,HCV NS3 protease,IC50,Hepatitis C virus,-,1.4 µM
CC(C)(C)OC(=O)Nc1sccc1-c1nc(C(=O)O)c(O)c(=O)[nH]1,HCV polymerase,IC50,Hepatitis C virus,-,<25 µM
CC(=O)c1ccc(-c2cc(N(C(=O)c3ccc(Cl)cc3Cl)C(C)C)c(C(=O)O)s2)s1,NS3 ATPase,IC50,Hepatitis C virus,-,<5 µM
O=C1/C(=C\c2ccc(C(F)(F)F)cc2)SC(=S)N1NS(=O)(=O)c1ccccc1,NS5B polymerase,IC50,Hepatitis C virus,-,≤30 µM
CCOc1ccc(NC(=O)Nc2cccc(-c3nc(C(=O)O)c(O)c(=O)[nH]3)c2)cc1,HCV polymerase,IC50,Hepatitis C virus,-,<100 µM
CC[C@@H](C=O)NC(=O)[C@@H]1C[C@@H](NS(=O)(=O)c2ccccc2)CN1C(=O)[C@@H](NC(=O)[C@@H](NC(=O)c1cnccn1)C(C)C)C(C)C,NS3 protease,Ki,Hepatitis C virus,-,1–100 µM
CC(=O)N[C@@H](CC(=O)O)C(=O)N[C@@H](CCC(=O)O)C(=O)N[C@@H](CC(C)C)C(=O)N[C@@H](CCC(=O)O)C(=O)N[C@@H](CC1CCCCC1)C(=O)N[C@@H](CS)C(=O)O,HCV NS3 protease,IC50,Hepatitis C virus,-,0.118 µM
CC(=O)N[C@H](C(=O)N[C@H](C(=O)N1C[C@H](OCc2cccc3ccccc23)C[C@H]1C(=O)NC1(C(=O)O)CC1)C(C)C)C1CCCCC1,Nonstructural protein 3 protease,IC50,Hepatitis C virus,-,3.5 µM
O=C(O)c1nc(-c2ccc(Cl)cc2)[nH]c(=O)c1O,HCV polymerase,IC50,Hepatitis C virus,-,<100 µM
CC[C@@H](C=O)NC(=O)[C@@H]1C[C@@H](OCc2ccccc2)CN1C(=O)[C@@H](NC(=O)c1cn(Cc2ccccc2)c2ccccc12)C(C)C,NS3 protease,Ki,Hepatitis C virus,-,1–100 µM
N#Cc1ccc(/C=C2/SC(=S)N(NS(=O)(=O)c3ccccc3)C2=O)cc1,NS5B polymerase,IC50,Hepatitis C virus,-,≤30 µM
CC[C@@H](C=O)NC(=O)[C@H](CC(C)C)NC(=O)[C@@H](NC(=O)[C@@H](NC(=O)CCN1CCCCC1)C(C)C)C(C)C,NS3 protease,Ki,Hepatitis C virus,-,1–100 µM
CC[C@H](C)[C@H](NC(=O)[C@@H](NC(C)=O)C(c1ccccc1)c1ccccc1)C(=O)N[C@@H](CC1CCCCC1)C(=O)N[C@@H](CS)C(=O)O,HCV NS3 protease,IC50,Hepatitis C virus,-,100 µM
O=C(Nc1ccc2[nH]ncc2c1)c1cc(NCc2ccccn2)c(F)cc1F,Reverse transcriptase,inhibition,Hepatitis B virus,1 µg/mL,69%
Cc1ccc(C(=O)N(c2cc(-c3ccccc3)sc2C(=O)O)C2CC[NH2+]CC2)cc1,NS3 ATPase,IC50,Hepatitis C virus,-,<5 µM
O=C1/C(=C\c2ccc(F)cc2F)SC(=S)N1NS(=O)(=O)c1ccccc1,NS5B polymerase,IC50,Hepatitis C virus,-,≤30 µM
CC[C@@H](C=O)NC(=O)[C@@H]1C[C@@H](OCc2ccccc2)CN1C(=O)[C@@H](NC(=O)c1c(C)cccc1C)C(C)C,NS3 protease,Ki,Hepatitis C virus,-,>100 µM
COc1ccc(/C=C2/SC(=S)N(NS(=O)(=O)c3ccccc3)C2=O)cc1C,NS5B polymerase,IC50,Hepatitis C virus,-,≤30 µM
Cc1ccc(C)c(S(=O)(=O)Nc2cc(-c3ccc([N+](=O)[O-])cc3)sc2C(=O)O)c1,NS3 ATPase,IC50,Hepatitis C virus,-,<5 µM
NC(COC(=O)Nc1ccsc1-c1nc(C(=O)O)c(O)c(=O)[nH]1)c1ccccc1,HCV polymerase,IC50,Hepatitis C virus,-,<25 µM
CC(=C\c1ccccc1)/C=C1/SC(=S)N(NS(=O)(=O)c2ccccc2)C1=O,NS5B polymerase,IC50,Hepatitis C virus,-,≤30 µM
CC1CCC(C(=O)N(c2cc(-c3ccc(-c4ccc(Cl)cc4)cc3)sc2C(=O)O)C(C)C)CC1,NS3 ATPase,IC50,Hepatitis C virus,-,<5 µM
O=C(Nc1ccc2cn[nH]c2c1)c1cc(C2CCNCCN2)c(F)cc1F,Reverse transcriptase,inhibition,Hepatitis B virus,1 µg/mL,82%
CC(C)S(=O)(=O)NN1C(=O)/C(=C\c2ccc(Cl)c(Cl)c2)SC1=S,NS5B polymerase,IC50,Hepatitis C virus,-,≤30 µM
CN1CCN(c2cc(C(=O)Nc3ccc4[nH]ncc4c3)c(F)cc2F)CC1,Nonstructural protein 5B,inhibition,Hepatitis C virus,1 µg/mL,20%
CC[C@H](C)[C@H](NC(=O)[C@H](CC(C)C)NC(=O)[C@@H](CCC(=O)O)NC(=O)[C@H](CC(=O)O)NC(C)=O)C(=O)N[C@@H](CC1CCCCC1)C(=O)N[C@@H](CS)C(=O)O,NS3/NS4A protease,IC50,Hepatitis C virus,-,0.015 µM
CC(C)(C)c1ccc(S(=O)(=O)Nc2cc(-c3ccccc3)sc2C(=O)O)cc1,NS3 ATPase,IC50,Hepatitis C virus,-,5–20 µM
CC(=O)N[C@@H](CC(=O)O)C(=O)N[C@@H](Cc1ccc(O)cc1)C(=O)N[C@@H](CC(C)C)C(=O)N[C@@H](CCC(=O)O)C(=O)N[C@@H](CC1CCCCC1)C(=O)N[C@@H](CS)C(=O)O,HCV NS3 protease,IC50,Hepatitis C virus,-,0.135 µM
O=C(Nc1ccc2cn[nH]c2c1)c1cc(N2CCN(CCO)CC2)c(F)cc1F,Reverse transcriptase,inhibition,Hepatitis B virus,0.01 µg/mL,39%
N[C@@H](C(=O)Nc1ccsc1-c1nc(C(=O)O)c(O)c(=O)[nH]1)c1ccccc1,HCV polymerase,IC50,Hepatitis C virus,-,<25 µM
Cc1noc(C)c1S(=O)(=O)Nc1cc(-c2ccccc2)sc1C(=O)O,NS3 ATPase,IC50,Hepatitis C virus,-,5–20 µM
CSCC[C@H](NC(=O)[C@H](CCC(=O)O)NC(=O)[C@H](CC(=O)O)NC(C)=O)C(=O)N[C@@H](CCC(=O)O)C(=O)N[C@@H](CC1CCCCC1)C(=O)N[C@@H](CS)C(=O)O,HCV NS3 protease,Ki,Hepatitis C virus,-,0.18 µM

ICn is the concentration giving n% inhibition. Blank or dashed fields: not listed here. Two numbers with a dash give a range or band. Conditions beyond the fields shown may differ between rows.